Measured values from several laboratories, pooled; numbers as filed in NIAID ChemDB.

Common to all: toxicity to cultured cells; cell line: Huh7; read-out: CC50

Conditions beyond the fields shown may differ between rows. Blank or dashed fields: not listed here. Two numbers with a dash give a range or band. CCn: concentration that lowers growth or viability of the cells by n%.

SMILES,method,result
COc1ccc(-c2cnc3nc(N)nc(N4CCN(C(=O)Cc5cccs5)CC4)c3n2)cc1OC,ATP,<10 µM
CCc1ccc2c(Nc3cc(C)ccc3Sc3ccc(NC(C)=O)cc3)ncnc2n1,MTT,>12.5 µM
CCOc1nc(N)nc2ccc(-c3ccc(C(=O)NC(C)C)cc3)nc12,,>20 µM
CCOc1nc(NCc2ccc(F)cc2)nc2ncc(-c3ccc(F)cc3)nc12,ATP,>20 µM
Nc1nc(N2CCS(=O)(=O)CC2)c2nc(-c3ccc(C(=O)NC4CC4)cc3)ccc2n1,,10–20 µM
N#Cc1c(Nc2ccc(I)c(Cl)c2)s[nH]c1=O,,>50 µM
COc1ccc(-c2cnc3nc(N)nc(N4CCN(C(=O)COc5ccccc5)CC4)c3n2)cc1OC,ATP,>20 µM
CCOc1nc(N)nc2ccc(-c3ccc(C(=O)NOC)cc3)nc12,,>20 µM
N#Cc1c(Nc2ccccc2Cl)s[nH]c1=O,,>50 µM
CC[C@@H](C)Nc1nc(N)nc2ncc(-c3ccc(OC)c(OC)c3)nc12,ATP,>20 µM
COc1ncc2c(Nc3cc(C)ccc3Sc3ccc(O)cc3)ncnc2n1,MTT,>8 µM
Cc1cccc(C)c1Sc1ccc(Nc2s[nH]c(=O)c2C#N)cc1,,<50 µM
COCCOc1nc(N)nc2ccc(-c3ccc(C(=O)NC(C)C)cc3)nc12,,>20 µM
N#Cc1c(Nc2cccc(Cl)c2)s[nH]c1=O,,>50 µM
CCOc1nc(N)nc2ccc(-c3ccc(C(=O)NC4CCCC4)cc3)nc12,,>20 µM
CCCCNC(=O)N1CCN(c2nc(N)nc3ncc(-c4ccc(OC)c(OC)c4)nc23)CC1,ATP,<10 µM
CC(=O)Nc1ccc(Sc2ccc(C)cc2Nc2ncnc3nc(C4CCC4)ccc23)cc1,MTT,49.2 µM
Cc1ccccc1C(Nc1s[nH]c(=O)c1C#N)c1ccc(F)cc1C,,>50 µM
CCC(=O)Nc1ccc(-c2ccc3nc(N)nc(NCCS(C)(=O)=O)c3n2)cc1,,>20 µM
CCCC1CCC(c2ccc(Nc3s[nH]c(=O)c3C#N)cc2)CC1,,>50 µM
CCCCNC(=O)c1ccc(-c2ccc3nc(N)nc(OCC)c3n2)cc1,,>20 µM
CCc1ccc2c(Nc3cc(C)ccc3Sc3ccc(O)cc3)ncnc2n1,MTT,78 µM
N#Cc1c(Nc2ccc(Br)nc2)s[nH]c1=O,,>50 µM
CC(C)CNC(=O)c1ccc(-c2ccc3nc(N)nc(OC(C)C)c3n2)cc1,,>20 µM